A mixed list of measured activities; the numbers were collected in NIAID ChemDB.

All rows: growth or infection tests; species: Mycobacterium tuberculosis

MIC bound: limit read from a one-dose screen.

smiles	strain or isolate	mutations	read by	endpoint	dose	value
CSc1ccc(-c2nn(-c3ccccc3)cc2C2CC(c3ccc([N+](=O)[O-])cc3)=NN2)cc1	H37Rv	-	BACTEC	inhibition	6.25 µg/mL	0%
O=C(/C=C1\N[C@@H]2CCCC[C@H]2N\C1=C/C(=O)c1ccccc1)c1ccccc1	-	-	-	inhibition	6.25 µg/mL	0%
CO[C@H]1/C=C/O[C@@]2(C)Oc3c(C)c(O)c4c(O)c(c(/C=N/N5CCN(C)CC5)c(O)c4c3C2=O)NC(=O)/C(C)=C\C=C\[C@H](C)[C@H](O)[C@@H](C)[C@@H](O)[C@@H](C)[C@H](OC(C)=O)[C@@H]1C	-	522Leu	-	MIC99	-	>640 µg/mL
NC(=O)c1cnccn1	Isolate 10611 monodrug-resistant	-	-	MIC	-	>300 µg/mL
FC(F)(F)c1cc(N2CCNCC2)c2cccc(C(F)(F)F)c2n1	-	-	-	MIC	-	62 µM
CCOC(=O)c1csc([C@@H]2O[C@H](COC(=O)c3ccccc3)[C@@H](OC(=O)c3ccccc3)[C@H]2OC(=O)c2ccccc2)n1	H37Rv	-	BACTEC	inhibition	12.5 µg/mL	-1%
O=C(CSc1nnc(-c2ccccn2)s1)N/N=c1/scc(-c2ccc(Br)cc2)n1-c1ccccc1	Clinical isolate 190	-	-	MIC	-	80 µg/mL
CO[C@H]1/C=C/O[C@@]2(C)Oc3c(C)c(O)c4c(O)c(c(/C=N/N5CCN(C)CC5)c(O)c4c3C2=O)NC(=O)/C(C)=C\C=C\[C@H](C)[C@H](O)[C@@H](C)[C@@H](O)[C@@H](C)[C@H](OC(C)=O)[C@@H]1C	13268	-	-	MIC	-	>0.1 µg/mL
COC(=O)c1cc(C2CCCC2)nc2c(C3CCCC3)cccc12	H37Rv	-	-	MIC	-	>6.25 µg/mL
COc1ccc(/C=C/C(=O)c2ccccc2F)cc1	-	-	-	EC50	-	<12.5 µg/mL
O=C(O)c1cc(C2C3CC4CC(C3)CC2C4)c2ccccc2n1	H37Rv	-	-	inhibition	6.25 µg/mL	15%
Cn1cc([N+](=O)[O-])nc1C(=O)NCc1ccc2c(c1)OCO2	H37Rv	-	-	MIC90	-	>200 µg/mL
CC(C)N(C(=S)S)C(C)C	H37Rv	-	BACTEC	inhibition	12.5 µg/mL	23%
CN[C@@H]1[C@@H](O)[C@@H](O[C@@H]2[C@@H](O)[C@H](O[C@H]3O[C@H](CN)CC[C@H]3N)[C@@H](N)C[C@H]2N)OC[C@]1(C)O	234/2005	MDR	broth dilution	MIC99	-	0.25 µM
NC(=O)c1cnccn1	ATCC 25618	-	-	MIC	-	64 µg/mL
CN(C)CNC(=S)S	H37Rv	-	-	MIC	-	3.1 µg/mL
Nc1cccc(/C=C/C(=O)c2ccccc2O)c1	-	-	-	EC50	-	>12.5 µg/mL
CC(C)=CCC/C(C)=C/COc1ccc(/C=C2\C(=O)N(O)[C@@H](C)C(=O)N2O)cc1	H37Rv	-	BACTEC	MIC bound	-	≤12.5 µg/mL
C=C(C)/C=C/[C@]12C[C@H](C)[C@H]3CC[C@](C)(NC)[C@@H](CC[C@H]1C)[C@@H]32	H37Rv	-	-	inhibition	16 µg/mL	95%
COc1ccc(CC(=O)c2cc([N+](=O)[O-])cn2C)c(OC)c1	H37Rv	-	-	MIC90	-	>200 µg/mL
CSc1ccc(-c2nn(-c3ccccc3)cc2C2CC(c3ccccc3)=NN2)cc1	H37Rv	-	BACTEC	inhibition	6.25 µg/mL	25%
CNC(=O)OCC1=C(COC(=O)NC)C2OC1C(C(=O)OC)=C2C(=O)OC	H37Rv	-	BACTEC	MIC bound	-	>12.5 µg/mL
O=C(CSc1nnc(-c2ccccn2)s1)N/N=c1/scc(-c2ccccc2)n1-c1ccc([N+](=O)[O-])cc1	H37Rv	-	-	MIC	-	40 µg/mL
C=C(CO)C(=O)OC1CC(=C)C2CC(O)C(C)C2C2OC(=O)C(=C)C12.CO	H37Rv	-	BACTEC	MIC bound	-	>12.5 µg/mL
CC(C)N=c1cc2n(-c3ccc(Cl)cc3)c3ccccc3nc-2cc1Nc1ccc(Cl)cc1	234/2005	MDR	broth dilution	MIC99	-	0.125 µM
COC(=O)c1cc(C2CCCCC2)c2ccccc2n1	H37Rv	-	-	inhibition	6.25 µg/mL	15%
NC(=O)/C(N=Nc1ccccc1C(=O)O)=N/Nc1ccccc1C(=O)O	H37Rv	-	BACTEC	MIC bound	-	>12.5 µg/mL
O=C(CSc1nnc(-c2ccccn2)s1)N/N=c1/scc(-c2ccccc2)n1-c1cccc(Cl)c1	Clinical isolate 331	-	-	MIC	-	>80 µg/mL
Cn1c([N+](=O)[O-])cnc1COC(=O)N1CCN(C(=O)OCc2ncc([N+](=O)[O-])n2C)CC1	H37Rv	-	resazurin	MIC bound	-	>6.25 µg/mL
CO[C@@H]1C/C=C\C=C\C[C@H](C)[C@@H](O)C[C@@H](O)[C@H](C)[C@H](O)CC(=O)O[C@H]([C@H](C)[C@H](O)/C=C(\C)CC/C=C/C=C/CC(O)CC(C)CCC(=O)O)C[C@H](O)CCC1	H37Rv	-	resazurin / absorbance	MIC	-	0.4 µg/mL
COc1cc2c(cc1C1COc3cc4occc4cc3C1=O)OCO2	H37Rv	-	BACTEC	MIC bound	-	>12.5 µg/mL
Cc1ccc(/C=C/C(=O)Oc2ccc(/C=C3\CCCCC3=O)cc2)cc1	H37Rv	-	-	EC50	-	>12.5 µg/mL
Cc1cccc(-n2c(-c3ccccc3)cs/c2=N/NC(=O)CSc2nnc(-c3ccccn3)s2)c1	H37Rv	-	-	MIC	-	>80 µg/mL
CSc1ccc(-c2nn(-c3ccccc3)cc2C2CC(c3cc(Br)c(O)c(Br)c3)=NN2)cc1	H37Rv	-	BACTEC	inhibition	6.25 µg/mL	55%
CO[C@H]1/C=C/O[C@@]2(C)Oc3c(C)c(O)c4c(O)c(c(/C=N/N5CCN(C)CC5)c(O)c4c3C2=O)NC(=O)/C(C)=C\C=C\[C@H](C)[C@H](O)[C@@H](C)[C@@H](O)[C@@H](C)[C@H](OC(C)=O)[C@@H]1C	8666/2010	MDR	broth dilution	MIC99	-	>8 µM
O=C(CSc1nnc(-c2ccccn2)s1)N/N=c1/scc(-c2cccc(Br)c2)n1-c1ccccc1	Clinical isolate 180	-	-	MIC	-	40 µg/mL
CSc1ccc(-c2nn(-c3ccccc3)cc2C2CC(c3ccc(C)cc3)=NN2C(C)=O)cc1	H37Rv	-	BACTEC	inhibition	6.25 µg/mL	86%
C[C@H]1CC[C@H]([C@@H](C)[C@H]2[C@@H](O)C[C@H]3[C@@H]4CC[C@H]5C[C@@H](O)CC[C@]5(C)[C@H]4CC[C@]23C)NC1	H37Rv	-	BACTEC	MIC bound	-	>12.5 µg/mL
COc1ccc(C(=O)Oc2ccc(/C=C3\CCCC(CN(C)C)C3=O)cc2)cc1	H37Rv	-	-	inhibition	12.5 µg/mL	100%
COc1ccc(C2=NN(C(C)=O)C(c3cn(-c4ccccc4)nc3-c3ccc(SC)cc3)C2)cc1	H37Rv	-	BACTEC	inhibition	6.25 µg/mL	55%
COc1cc2c(oc(=O)c3cc(C)cc(OC)c32)c2c(C3OC(C)C(O)C(C)(O)C3O)ccc(O)c12	H37Rv	-	BACTEC	inhibition	12.5 µg/mL	100%
O=C(O)c1ccnc2ccccc12	H37Rv	-	-	inhibition	6.25 µg/mL	6%
CC(C)N(CN1C(=O)N/C(=C\c2cccc(/C=C3/NC(=O)N(CN(C(C)C)C(C)C)C3=O)c2)C1=O)C(C)C	H37Rv	-	BACTEC	MIC bound	-	>12.5 µg/mL
CSc1ccc(-c2nn(-c3ccccc3)cc2C2CC(c3ccccc3O)=NN2)cc1	H37Rv	-	BACTEC	inhibition	6.25 µg/mL	0%
Cc1ccccc1-n1c(-c2ccccc2)cs/c1=N/NC(=O)CSc1nnc(-c2ccccn2)s1	Clinical isolate 190	-	-	MIC	-	20 µg/mL
O=C1C[C@@H](c2ccc(O)cc2)Oc2cc(O)c(-c3c(O)cc4c(c3O)C(=O)C[C@@H](c3ccc(O)cc3)O4)c(O)c21	-	-	-	EC50	-	>12.5 µg/mL
O/C(=C\c1nc2ccccc2nc1/C=C(\O)c1ccc(Cl)cc1)c1ccc(Cl)cc1	-	-	-	MIC	-	>6.25 µg/mL
COc1ccc(CCNC(=O)c2ccc([N+](=O)[O-])o2)cc1	H37Rv	-	-	MIC90	-	0.4 µg/mL
COc1ccc(C(=O)Oc2ccc(/C=C3\CCCCC3=O)cc2)cc1	H37Rv	-	-	EC50	-	<12.5 µg/mL
O=C(/C=C1\N[C@H]2CCCC[C@H]2N\C1=C/C(=O)c1ccccc1)c1ccccc1	-	-	-	MIC	-	>6.25 µg/mL
CC1=C(C)C(=O)C(CC2=C(C)C(=O)C(C)=C(C)C2=O)=C(C)C1=O	PAS-R	-	-	MIC	-	8 µg/mL
Cn1cc([N+](=O)[O-])nc1C(=O)NCc1ccccn1	H37Rv	-	-	MIC90	-	>200 µg/mL
NCC[C@H](O)C(=O)N[C@@H]1C[C@H](N)[C@@H](O[C@H]2O[C@H](CN)[C@@H](O)[C@H](O)[C@H]2O)[C@H](O)[C@H]1O[C@H]1O[C@H](CO)[C@@H](O)[C@H](N)[C@H]1O	Praha 1	MDR	broth dilution	MIC99	-	0.5 µM
COC(=O)C/C(=C\C=C1\C(=O)ON=C1C)c1c(C)[nH]oc1=O.c1ccncc1	H37Rv	-	resazurin	MIC bound	-	>6.25 µg/mL
O[C@@H](c1cc(C(F)(F)F)nc2c(C(F)(F)F)cccc12)[C@@H]1CCCCN1Cc1ccccc1	-	-	-	MIC	-	8 µM
COc1ccc(/C=C/C(=O)c2ccc(F)cc2O)cc1	H37Rv	-	-	inhibition	12.5 µg/mL	63%
CN(C)CC1CCC/C(=C\c2ccc(OC(=O)/C=C/c3ccc(Cl)c(Cl)c3)cc2)C1=O	H37Rv	-	-	inhibition	12.5 µg/mL	99%
CC(C)C1=CC2=CCC3C(C)(COC(=O)COc4ccccc4)CCCC3(C)C2CC1	H37Rv	-	BACTEC	MIC bound	-	>12.5 µg/mL
O=C1c2c(O)cc(O)cc2OC(c2ccc(O)cc2)C1c1c(O[C@@H]2O[C@H](CO)[C@@H](O)[C@H](O)[C@H]2O)cc(O)c2c(=O)cc(-c3ccc(O)cc3)oc12	H37Rv	-	-	EC50	-	>12.5 µg/mL
NNC(=O)c1ccncc1	Praha 131	MDR	broth dilution	MIC99	-	16 µM
C[C@H]1COc2c(N3CCN(C)CC3)c(F)cc3c(=O)c(C(=O)O)cn1c23	Clinical isolate 309	INH RIF resistant	resazurin	MIC	-	0.25 µg/mL
COC(=O)c1cc(C2CCCCC2)c2c(C3CCCCC3)cccc2n1	H37Rv	-	-	MIC	-	6.25 µg/mL
CC(=O)OC1C(COS(C)(=O)=O)OC(OC2(COS(C)(=O)=O)OC(COS(C)(=O)=O)C(OC(C)=O)C2OC(C)=O)C(OS(C)(=O)=O)C1OC(C)=O	H37Rv	-	BACTEC	inhibition	12.5 µg/mL	-7%
O=C1/C(=C/c2ccc(OC(=O)c3ccc(Cl)cc3)cc2)CCC/C1=C\c1ccc(OC(=O)c2ccc(Cl)cc2)cc1	H37Rv	-	-	EC50	-	>12.5 µg/mL
CN(C)c1cc(C(F)(F)F)nc2c(C(F)(F)F)cccc12	-	-	-	MIC	-	>128 µM
CC[C@@H](CO)NCCN[C@@H](CC)CO	8666/2010	MDR	broth dilution	MIC99	-	8 µM
COC1=NOC2C=COC12	H37Rv	-	BACTEC	inhibition	12.5 µg/mL	-3%
COC(=O)c1cc(C2CCCCC2)nc2ccccc12	H37Rv	-	-	MIC	-	>6.25 µg/mL
C=C(C)CC[C@H]1CN(c2ccn(N3CCOCC3)c2)C(=O)O1	ATCC 35837 (ethambutol-resistant)	-	-	MIC50	-	>100 µM
CCCCCCCCCC1=C(C#N)C(=O)OCCN1C	H37Rv	-	BACTEC	MIC bound	-	>12.5 µg/mL
CCOC(=O)c1ccc(C(=O)Nc2cccc(OC)c2)o1	H37Rv	-	-	MIC90	-	200 µg/mL
NNC(=O)C1CC2c3ccccc3C1c1ccccc12	H37Rv	-	BACTEC	MIC bound	-	>12.5 µg/mL
COc1cccc(CNC(=O)c2ccc([N+](=O)[O-])o2)c1OC	H37Rv	-	-	MIC90	-	0.8 µg/mL
NCCCNc1cc(C(F)(F)F)nc2c(C(F)(F)F)cccc12	-	-	-	MIC	-	>128 µM
COc1ccc(/C=C/C(=O)c2cc(C(=O)O)ccc2O)cc1	H37Rv	-	-	EC50	-	>12.5 µg/mL
NC(=O)c1nc([C@@H]2O[C@H](CO)[C@@H](O)[C@H]2O)no1	H37Rv	-	BACTEC	inhibition	12.5 µg/mL	-8%
COc1ccc(CNC(=O)c2nc([N+](=O)[O-])cn2C)cc1	H37Rv	-	-	MIC90	-	>200 µg/mL

Repeating the first 5 entries:

CSc1ccc(-c2nn(-c3ccccc3)cc2C2CC(c3ccc([N+](=O)[O-])cc3)=NN2)cc1 ; strain or isolate: H37Rv ; read by: BACTEC ; endpoint: inhibition ; dose: 6.25 µg/mL ; value: 0%
O=C(/C=C1\N[C@@H]2CCCC[C@H]2N\C1=C/C(=O)c1ccccc1)c1ccccc1 ; endpoint: inhibition ; dose: 6.25 µg/mL ; value: 0%
CO[C@H]1/C=C/O[C@@]2(C)Oc3c(C)c(O)c4c(O)c(c(/C=N/N5CCN(C)CC5)c(O)c4c3C2=O)NC(=O)/C(C)=C\C=C\[C@H](C)[C@H](O)[C@@H](C)[C@@H](O)[C@@H](C)[C@H](OC(C)=O)[C@@H]1C ; mutations: 522Leu ; endpoint: MIC99 ; value: >640 µg/mL
NC(=O)c1cnccn1 ; strain or isolate: Isolate 10611 monodrug-resistant ; endpoint: MIC ; value: >300 µg/mL
FC(F)(F)c1cc(N2CCNCC2)c2cccc(C(F)(F)F)c2n1 ; endpoint: MIC ; value: 62 µM

An empty or dashed field is not shown. ECn is the concentration giving n% inhibition of infection, replication or growth. MIC50, MIC90 and the like: level of inhibition, or share of isolates inhibited. Percent inhibition refers to the dose given; in toxicity tests it is the harm to the cells. Rows are shuffled and stem from different studies.